The test system of series [1] is PMM (primary mouse macrophages). The series is described as follows: Toxicity against PMM. Type of series: cell-based. As to conditions: ratio TC50 (PMM)/MRSA MIC, rounded to the nearest integer. The protocol: (§1) ADME and toxicity for compounds were measured according to procedures outlined in the manuscript submitted in parallel to this one;2 other procedures were used for those compounds analysed by Monash University (in vitro ADME) or UCL (toxicity), both described in the main

For series [2], the system named is MRC-5SV2 (human lung fibroblast cell line). Briefly: Toxicity against MRC-5SV2. As to conditions: ratio TC50 (MRC-5)/MRSA MIC, rounded to the nearest integer. The format is cell-based. The procedure: as §1

Structures are written as SMILES.

With `COc1ccn2c(Nc3ccccc3F)c(-c3cnn(C)c3)nc2c1` [compound 855], the “SI PMM” value in series [1] was 1. Moreover, the “SI MRC5” value in series [2] was found to be 1.
As for `COc1ccn2cc(-c3ccccn3)nc2c1` [compound 856], the “SI PMM” value in series [1] was found to be 0. Further, the “SI MRC5” value in series [2] is 0.
As to `COc1ccn2c(-c3ccc(F)cc3)c(-c3ccccn3)nc2c1` [compound 858], the “SI PMM” value in series [1] is recorded as 0. In addition, the “SI MRC5” value in series [2] turned out to be 0.
Regarding `Fc1ccc(-c2c(-c3ccccn3)nc3ccccn23)cc1` [compound 859], in series [1], the “SI PMM” value is on record as 0. Also, the “SI MRC5” value in series [2] is listed as 0.
With `COc1ccn2c(-c3ccccc3)c(-c3ccccn3)nc2c1` [compound 860], the “SI PMM” value in series [1] is 0. The “SI MRC5” value in series [2] came out at 0.
As for `Fc1cccc(-c2c(-c3ccccn3)nc3n2CCC3)c1` [compound 872], in series [1], the “SI PMM” value worked out at 0. Also, the “SI MRC5” value in series [2] was 0.
For `Clc1ccc(-c2c(-c3ccccn3)nc3n2CCC3)cc1` [compound 875], in series [1], the “SI PMM” value is listed as 1. The “SI MRC5” value in series [2] worked out at 0.
For the compound `N#Cc1ccc(-c2c(-c3ccccn3)nc3n2CCC3)cc1` [compound 975], in series [1], the “SI PMM” value was 5. Moreover, the “SI MRC5” value in series [2] was found to be 2.
`Fc1ccc(N(CC2CC2)c2c(-c3ccccn3)nc3ccccn23)cc1` [compound 979]: the “SI PMM” value in series [1] is 1. Further, the “SI MRC5” value in series [2] was determined as 1.
On to `COc1ccc2nc(-c3ccccn3)c(N(C)c3ccc(F)cc3)n2c1` [compound 980], for which the “SI PMM” value in series [1] is on record as 1. The “SI MRC5” value in series [2] is 0.
Turning to `CCN(c1ccc(F)cc1)c1c(-c2ccccn2)nc2ccccn12` [compound 981], in series [1], the “SI PMM” value turned out to be 1. The “SI MRC5” value in series [2] amounted to 1.
Turning to `CCCN(c1ccc(F)cc1)c1c(-c2ccccn2)nc2ccccn12` [compound 982], the “SI PMM” value in series [1] is 0. In series [2], the “SI MRC5” value came to 1.
For `CC(C)CN(c1ccc(F)cc1)c1c(-c2ccccn2)nc2ccccn12` [compound 983], the “SI PMM” value in series [1] turned out to be 4. Also, in series [2], the “SI MRC5” value worked out at 10.
Taken in the same sequence, the figures for `Fc1ccc(Nc2c(-c3ccccn3)nc3sccn23)cc1` [compound 984] were 1 and 0.
For the compound `Fc1ccc(Nc2c(-c3ccccn3)nc3ccccn23)cc1` [compound 987], in series [1], the “SI PMM” value is recorded as 1. For the same compound, the “SI MRC5” value in series [2] was 0.
The corresponding values for `NC(=O)c1ccc(-n2c(-c3ccccn3)nc3ccccc32)cc1` [compound 989] are 1 and 1.
Take `N#Cc1ccc(-n2c(-c3ccccn3)nc3ccccc32)cc1` [compound 990]: in series [1], the “SI PMM” value is 1. Besides, the “SI MRC5” value in series [2] was 1.
`c1ccc(-c2nc3ccccc3n2-c2ccc3occc3c2)nc1` [compound 991]: the “SI PMM” value in series [1] was 1. Moreover, the “SI MRC5” value in series [2] turned out to be 1.
In the case of `c1ccc(-n2c(-c3ccccn3)nc3ccccc32)cc1` [compound 992], in series [1], the “SI PMM” value amounted to 1. Further, the “SI MRC5” value in series [2] is 1.
As to `c1ccc(Cn2c(-c3ccccn3)nc3ccccc32)cc1` [compound 993], the “SI PMM” value in series [1] is listed as 1. Moreover, in series [2], the “SI MRC5” value was 1.
For `c1ccc(-c2nc3ccccc3n2-c2ccc(N3CCCCC3)cc2)nc1` [compound 994], the “SI PMM” value in series [1] amounted to 0. Besides, the “SI MRC5” value in series [2] turned out to be 0.
As to `c1ccc(-c2nc3ccccc3n2-c2ccc(N3CCOCC3)cc2)nc1` [compound 995], in series [1], the “SI PMM” value amounted to 1. For the same compound, the “SI MRC5” value in series [2] came out at 1.
With `N#CCc1ccc(-n2c(-c3ccccn3)nc3ccccc32)cc1` [compound 996], in series [1], the “SI PMM” value is 1. Further, the “SI MRC5” value in series [2] came out at 1.
Consider `Fc1ccc(NCc2c(-c3ccccn3)nc3ccccn23)cc1` [compound 1019], for which the “SI PMM” value in series [1] is reported as 1. For the same compound, in series [2], the “SI MRC5” value came to 1.
Turning to `CS(=O)(=O)c1ccc2nc(-c3ccccn3)c(Nc3ccc(F)cc3)n2c1` [compound 1020], the “SI PMM” value in series [1] worked out at 0. The “SI MRC5” value in series [2] is 1.
Taken in the same sequence, the figures for `CC(=O)N(c1ccc(F)cc1)c1c(-c2ccccn2)nc2ccccn12` [compound 1021] were 1 and 1.
The corresponding values for `Cc1ccc2nc(-c3ccccc3)cn2c1` [compound 1026] are 0 and 0.
On to `Cc1ccc2nc(-c3ccccc3)c(CNc3ccc(F)cc3)n2c1` [compound 1027], for which the “SI PMM” value in series [1] amounted to 1. Also, the “SI MRC5” value in series [2] is listed as 1.
Turning to `Cc1ccc2nc(-c3ccccc3)c(CNc3cccc(C(F)(F)F)c3)n2c1` [compound 1028], the “SI PMM” value in series [1] was 1. In addition, in series [2], the “SI MRC5” value amounted to 1.
Turning to `CCCCN(Cc1c(-c2ccccc2)nc2ccc(C)cn12)c1cccc(C(F)(F)F)c1` [compound 1029], the “SI PMM” value in series [1] was 0. Besides, the “SI MRC5” value in series [2] worked out at 0.
Turning to `Cc1ccn2cc(-c3ccccn3)nc2c1` [compound 1030], in series [1], the “SI PMM” value amounted to 0. In addition, the “SI MRC5” value in series [2] is on record as 0.
In the case of `Cc1ccn2c(CN(CC(C)C)c3cccc(C(F)(F)F)c3)c(-c3ccccn3)nc2c1` [compound 1033], the “SI PMM” value in series [1] worked out at 0. The “SI MRC5” value in series [2] is listed as 0.
Regarding `FC(F)(F)c1ccc(-c2c(-c3ccccn3)nc3n2CCC3)cc1` [compound 1052], the “SI PMM” value in series [1] came to 1. Also, the “SI MRC5” value in series [2] came out at 0.
In the case of `Fc1ccc(-c2c(-c3ccccn3)nc3n2CCC3)cc1` [compound 1053], the “SI PMM” value in series [1] is 0. Further, in series [2], the “SI MRC5” value amounted to 0.
`c1ccc(-c2nc3n(c2-c2ccncc2)CCC3)nc1` [compound 1072]: the “SI PMM” value in series [1] was found to be 1. In addition, the “SI MRC5” value in series [2] is listed as 1.
Regarding `Fc1cc(-c2c(-c3ccccn3)nc3n2CCC3)ccn1` [compound 1073], the “SI PMM” value in series [1] is 0. Besides, in series [2], the “SI MRC5” value is given as 0.
For the compound `Nc1ccc(-c2c(-c3ccccn3)nc3n2CCC3)cc1` [compound 1074], the “SI PMM” value in series [1] came to 0. Also, in series [2], the “SI MRC5” value is given as 0.
Consider `N#Cc1ccc(-c2c(-c3ccccn3)nc3n2CCC3)cn1` [compound 1075], for which the “SI PMM” value in series [1] worked out at 1. Besides, the “SI MRC5” value in series [2] stood at 1.
Turning to `COc1cc(-c2c(-c3ccccn3)nc3n2CCC3)ccc1C#N` [compound 1076], the “SI PMM” value in series [1] is 1. Besides, the “SI MRC5” value in series [2] came out at 0.
For the compound `N#Cc1ccc(-c2c(-c3ccccn3)nc3n2CCC3)cc1C(F)(F)F` [compound 1077], the “SI PMM” value in series [1] was determined as 1. Further, the “SI MRC5” value in series [2] is on record as 1.

Source of the values: publication PMC10714399, “Open Source Antibiotics: Simple Diarylimidazoles Are Potent against Methicillin-Resistant Staphylococcus aureus” (ACS Infectious Diseases, 2023).
